For the assay, the system named is TABX2S cells (over-expressing Bcl-xL). From the text:
Briefly, a DNA fragment encoding the full-length mouse Bcl-xL cDNA was isolated from the plasmid pBS-BCL-xL (Tzung et al., Am. J. Path. 150:1985-1995 (1997), incorporated herein by reference in its entirety) by digestion with the restriction endonuclease EcoRI. This EcoRI fragment was cloned into the EcoRI site of the mammalian expression vector pSFFV (Fuhlbrigge et al., Proc. Nat. Acad. Sci. USA 85:5649-5653 (1988)) in both sense and antisense orientations, to form expression plasmids pSFFV-Bc/-xL-WT(sense) or pSFFV-Bc/-xL(antisense), respectively. The tumorigenic murine hepatocyte cell line TAMH was transfected by lipofection (Lipofectamine, Life Technologies, Rockville, Md., according to the manufacturer's recommendations) with the plasmids pSFFV-neo (the control), pSFFV-Bc/-xL-WT(sense) or pSFFV-Bc/-xL(antisense). Characterization of and culture conditions for the cell lines have been previously published (Wu et al., Proc. Nat. Acad. Sci. USA 91:674-78 (1994); Wu et al., Cancer Res. 54:5964-5973 (1994)). […]
Selected transfectants were then tested for whole cell sensitivity to several apoptotic agents. […] Cell viability was determined by trypan blue dye exclusion. The percentage of viable cells was calculated by the number of viable cells (treated with a particular apoptogenic agent) divided by the number in the control group (untreated). […]

Substance antimycin A registered an LD50 of 1.2 µM.

These data come from patent publication US20100221709A1, “METHODS FOR IDENTIFYING AGENTS THAT MODULATE APOPTOSIS IN CELLS THAT OVER-EXPRESS A BCL-2 FAMILY MEMBER PROTEIN” (priority 2005, published 2010).
